Here are results for one substance from patent publication US8852647B2, “Combinations of pyrimethanil and silver compounds” (Janssen Pharmaceutica, NV, priority 2007, dated 2014).

One assay concerns Escherichia coli. The experiment in a line: Poison Plate Assay (Experiment 1), Escherichia coli. The settings on record: Table 2, pyrimethanil with silver perchlorate; ppm total active ingredient; Tryptose Agar, 27° C., evaluation after one week.
The subject of another assay is Rhodoturula rubra. Put plainly: Poison Plate Assay (Experiment 1), Rhodoturula rubra. The settings on record: Table 2, pyrimethanil with silver perchlorate; ppm total active ingredient; Glucose Agar, 22° C., evaluation after two weeks.
The next assay deals with Aspergillus versicolor. Put plainly: Poison Plate Assay (Experiment 1), Aspergillus versicolor. The settings on record: Table 2, pyrimethanil with silver perchlorate; ppm total active ingredient; Glucose Agar, 22° C., evaluation after two weeks.

Consider silver perchlorate, for which the results for the “MIC-values (minimum inhibitory concentration)” value with Escherichia coli, in the assay with Rhodoturula rubra and in the assay on Aspergillus versicolor were 66.67 ppm, 66.67 ppm and 88.99 ppm, respectively.
